Results of unrelated studies side by side (data: NIAID ChemDB).

Common to all: host cell toxicity; measure: CC50

Blank or dashed fields: not listed here. CCn: concentration that lowers growth or viability of the cells by n%. a–b is a range or a potency band. Conditions beyond the fields shown may differ between rows.

| structure | read by | cell line | result |
|---|---|---|---|
| COc1ccc(C(O)C(Br)N=[N+]=[N-])cc1OC | - | HEK 293 | <13.5 µM |
| C[C@H](CCC(=O)NCCCCN(CCCNC(=O)CC[C@@H](C)[C@H]1CC[C@H]2[C@@H]3[C@H](OS(=O)(=O)O)C[C@@H]4C[C@H](OS(=O)(=O)O)CC[C@]4(C)[C@H]3C[C@H](OS(=O)(=O)O)[C@]12C)C(=O)CC[C@@H](C)[C@H]1CC[C@H]2[C@@H]3[C@H](OS(=O)(=O)O)C[C@@H]4C[C@H](OS(=O)(=O)O)CC[C@]4(C)[C@H]3C[C@H](OS(=O)(=O)O)[C@]12C)[C@H]1CC[C@H]2[C@@H]3[C@H](OS(=O)(=O)O)C[C@@H]4C[C@H](OS(=O)(=O)O)CC[C@]4(C)[C@H]3C[C@H](OS(=O)(=O)O)[C@]12C | MTS | CaSki | >1000 µg/mL |
| COC(=O)N[C@@H]1[C@H](C)O[C@@H](OC2C/C=C(\C)[C@H]3C=C[C@H]4[C@H](OC5C[C@@H](OC6C[C@@H](O)[C@@H](OC7C[C@@H](O)[C@@H](OC)[C@H](C)O7)[C@H](C)O6)[C@@H](O)[C@H](C)O5)[C@H](C)C[C@@H](C)[C@@H]4[C@@]3(C)/C(O)=C3/C(=O)OC4(C[C@H](C)C(CO)=C[C@H]4/C=C\2C)C3=O)C[C@@]1(C)[N+](=O)[O-] | MTT | CEM-TART lymphoblastoid cells | 0.3 µM |
| Cn1c2ccccc2c(=O)c2c(O)ccc(O)c21 | - | OM-10.1 | 0.36 µg/mL |
| CCOC(=O)c1cccc(NC(=O)c2ccc3ncnc(Nc4ccc(N5CCOCC5)cc4)c3c2)c1 | - | HUH 9B | >25 µM |
| CCCCCCOc1nc(N)nc2c1ncn2/C=C1/C[C@@H]1CO | ATP | Akata | >20 µM |
| CCCCCCCCCc1ccc(OCCOCCOCCOCCOCCOCCOCCOCCOCCO)cc1 | MTT | P4-CCR5 | 70 µg/mL |
| CCc1ccc2c(c1)c(Sc1ccc(N)cc1)cc(=O)n2C | - | Huh-Luc-Neo | >100 µM |
| Nc1nc(N)nc(OC[C@H]2CC[C@@H](COc3nc(N)nc(N)n3)O2)n1 | - | PC-3 | >250 µM |
| C=C1C[C@@H](OC(=O)c2ccccc2)[C@H]2[C@](C)(C(=O)O)CCC[C@]2(C)C1CC/C(C)=C/CO | - | HELA229 | 1.8 µg/mL |
| CCOC(=O)CCCCOc1ccccc1C=O | - | RAJI | >20 µM |
| Nc1nc(-c2ccc(NC(=O)CN(Cc3ccncc3)C(=O)C3CCCCC3)cc2)cs1 | - | BHK-21/C13 | >73 µM |
| CCNC(=O)c1ccc2ncnc(Nc3ccc(N4CCOCC4)cc3)c2c1 | - | HUH 9B | >25 µM |
| Nc1nc(N)c2cc3c(nc2n1)CCc1ccccc1-3 | MTT | HCT116 | 25 µM |
| CC[C@@H]1CN2CC[C@@]34C5=C(C[C@]6(CN5c5ccccc53)C3=Nc5ccccc5[C@@]35CCN3C[C@@H](CC)[C@@H]6C[C@H]35)[C@H]1C[C@H]24 | MTT | HL-60 | 16.3 µM |
| Nc1nc2c(ncn2COCCO)c(=O)[nH]1 | - | CBMC | >200 µg/mL |
| NC1=Nc2ccc(Cl)cc2C1(O)c1ccccc1 | - | Erythrocyte | >155 µM |
| Nc1nc2c(ncn2COC(CO)CO)c(=O)[nH]1 | - | CFU-GM | 15 µM |
| N#Cc1ccc(-c2nc(Nc3ccc(N4CCOCC4)cc3)c3ccccc3n2)cc1 | - | HUH 9B | >25 µM |
| C=CCOc1nc(N)nc2c1ncn2/C=C1/C[C@@H]1CO | ATP | Akata | >20 µM |
| CC(C)N(Cc1cccc(OCCCCCC(=O)OC(=O)O)c1)C(=O)c1ccc(-c2ccc3[nH]ccc3c2)cc1 | - | HEK 293 | >20 µM |
| COC(=O)c1cc(O)cc(OC)c1C(=O)c1c(O)cc(C)c(Cl)c1O | MTT | Huh7.5.1 | >50 µM |
| CC(C)Oc1ccccc1C1(O)C(N)=Nc2ccc(Cl)cc21 | - | Erythrocyte | >120 µM |
| COc1cc2ncnc(Nc3ccc(N4CCOCC4)cc3)c2cc1OC | - | HUH 9B | >25 µM |
| CCOC(=O)CCCCCOc1cccc(CN(C(=O)c2ccc(-c3cccc(Cl)c3)cc2)C(C)C)c1 | - | RAJI | >13.5 µM |
| Nc1nc2c(ncn2CCC(CO)CO)c(=O)[nH]1 | - | CBMC | >200 µg/mL |
| CCCCC(=O)OC1CC(OC(C)C(C)C(O)C(C)C(O)C(C)C2OC(=O)/C=C/CC(O)CC(O)CC(O)CCC(C)C(O)C[C@@]3(O)O[C@H](CC(O)CC(OC(=O)CC(=O)O)CCCC(O)C4OC4C2C)C[C@H](O)[C@H]3O)OC(C)C1O | - | P815 | >100 µg/mL |
| Cn1cc2c3cc(Br)ccc3nc-2c2cc(Cl)ccc21 | MTT | 3T3 | 9.005 µM |
| Cn1c(=O)cc(Sc2cc(Cl)ccc2Cl)c2ccccc21 | - | Huh-Luc-Neo | >100 µM |
| CC(C)Nc1nc2cc(Cl)c(Cl)cc2n1[C@H]1O[C@@H](CO)[C@H](O)[C@@H]1O | - | IM9 | 35–72 µM |
| Cc1ccc2c(c1)c(Sc1ccc(N)cc1)cc(=O)n2C | - | Huh-Luc-Neo | >100 µM |
| CCOC(=O)COc1ccc(CO)cc1 | - | BJ | >20 µM |
| Nc1nc(N)nc(OC[C@H]2CC[C@@H](CO)O2)n1 | - | PC-3 | >250 µM |
| COc1cnc(OC)c(C2(O)C(N)=Nc3ccc(Cl)cc32)c1 | - | Erythrocyte | >125 µM |
| COc1ccc(-c2c(C)c(=O)c3cc(C(C)C)ccc3n2C)cc1 | MTT | HeLa S3 | 7.6 µg/mL |
| COC(=O)c1cc(O)cc(OC)c1C(=O)c1c(O)cc(C)cc1O | MTT | Huh7.5.1 | >50 µM |
| CC(=O)COc1cc(OC(C)=O)c2c(c1)C(=O)C1C=C(C)C=C(OC(C)=O)C1C2=O | - | K562 erythroleukemia cells | 59 µM |
| CCCCSc1nc(N)nc2c1ncn2/C=C1/C[C@@H]1CO | ATP | Akata | >20 µM |
| CC1=CC2C(=O)c3cc(O)cc(O)c3C(=O)C2C(O)=C1 | - | K562 erythroleukemia cells | 35 µM |
| CCN(CC)C(=O)OCC1CN(C(=O)c2cc(OC)c(OC)c(OC)c2)CCN1C(=S)c1cc(OC)c(OC)c(OC)c1 | neutral red | MDM | >100 µM |
| CCN(CC)CCNc1cc(C)nc2c1ccc1c2ccc2c(NCCN(CC)CC)cc(C)nc21 | MTT | Macrophage line RAW 264.7 | 0.00601 µM |
| Nc1nc(SC2CCCC2)c2ncn(/C=C3/C[C@@H]3CO)c2n1 | ATP | Akata | >20 µM |
| NC(=O)CCNC(=O)c1ccccc1SCc1ccc([N+](=O)[O-])o1 | XTT | Macrophage | >50 µM |
| COc1cc(OC[C@H]2CC[C@@H](CO)O2)ncn1 | - | L1210 | 196 µM |
| Nc1nc(N)c2cc3c(ccc4ccccc43)nc2n1 | MTT | HCF-7 | 8.6 µM |
| Cn1cc2c3cc(Cl)ccc3nc-2c2ccccc21 | MTT | 3T3 | 2.104 µM |
| COC(=O)N[C@@H]1[C@H](C)O[C@@H](OC2C/C=C(\C)[C@H]3C=C[C@H]4[C@H](OC5C[C@@H](OC6C[C@@H](O)[C@@H](OC7C[C@@H](O)[C@@H](OC)[C@H](C)O7)[C@H](C)O6)[C@@H](O)[C@H](C)O5)[C@H](C)C[C@@H](C)[C@@H]4[C@@]3(C)/C(O)=C3/C(=O)OC4(C[C@H](C)C(CO)=C[C@H]4/C=C\2C)C3=O)C[C@@]1(C)N | MTT | CEM-TART lymphoblastoid cells | 1.6 µM |
| CC(=O)C[C@@H]1C[C@H]2[C@H]([C@@H]3c4[nH]c5ccccc5c4CCN13)[C@H](O)C13CC/C=C\CCCCN1CC21CC/C=C\CCCNC13 | - | H-116 | 5 µg/mL |
| c1ccc(COc2ccccc2-c2ccc3ncnc(Nc4ccc(N5CCOCC5)cc4)c3c2)cc1 | - | HUH 9B | >25 µM |
| Nc1ccn(C[C@@H](CO)OCP(=O)(O)O)c(=O)n1 | - | CBMC | 63.88 µg/mL |
| CCCN(Cc1ccc(OCC(=O)O)cc1)C(=O)c1ccc(-c2ccc3c(c2)OCO3)cc1 | - | HEK 293 | >20 µM |
| CC(C)(C)COc1nc(N)nc2c1ncn2/C=C1/C[C@@H]1CO | ATP | Akata | >20 µM |
| COc1ncc(-c2ccc3ncnc(Nc4ccc(N5CCOCC5)cc4)c3c2)cn1 | - | HUH 9B | >25 µM |
| Nc1ccnc(OC[C@H]2CC[C@@H](CO)O2)n1 | - | PC-3 | ≥250 µM |
| C=C(C=O)CCC1C(=C)C[C@@H](OC(=O)c2ccccc2)[C@H]2[C@](C)(C(=O)O)CCC[C@]12C | - | HELA229 | 1.1 µg/mL |
| Cc1ccc2c3cn(C)c4ccccc4c-3nc2c1 | MTT | 3T3 | 2.067 µM |
| COc1cc(O)c2c(=O)c3ccccc3n(C)c2c1 | - | OM-10.1 | 0.8 µg/mL |
| CCN(CC)C(=O)OCC1CN(C(=O)c2ccccc2)CCN1C(=O)c1ccccc1 | neutral red | MDM | >100 µM |
| CCn1c2c(c(=O)c3cc(C(C)C)ccc31)Cc1c-2ccn1C | MTT | HELA-OHIO | >10 µg/mL |
| O=C(O)c1ccc(-c2ccc3ncnc(Nc4ccc(N5CCOCC5)cc4)c3c2)s1 | - | HUH 9B | >25 µM |
| COc1ccc(N(CC(=O)NC(C)(C)C)C(=O)[C@H]2CC[C@@]3(C)C4CC=C5C[C@@H](O)CC[C@]5(C)C4CC[C@]23C)cc1 | crystal violet | Vero cells | 154.4 µM |
| O=C(O)c1cc(-c2cccs2)nc2ccccc12 | - | RAJI | >20 µM |
| COc1ccc2c(c1)C=C1Cn3c-2c(C2CCCCC2)c2ccc(cc23)C(=O)NS(=O)(=O)N(C)CCOCCN(C)C1=O | resazurin | HEK293T | >50 µM |
| Nc1nc2c(ncn2COC(CO)OCP(=O)(O)O)c(=O)[nH]1 | - | CBMC | 103.5 µg/mL |
| Nc1ccnc(OC[C@H]2CC[C@@H](COCc3ccccc3)O2)n1 | - | PC-3 | ≥250 µM |
| CCCCCCSc1nc(N)nc2c1ncn2/C=C1/C[C@@H]1CO | ATP | Akata | >20 µM |
| CCN(CC)C(=O)OCC1CN(Cc2noc(=O)[nH]2)CCN1C(=O)c1cc(OC)c(OC)c(OC)c1 | neutral red | MDM | >100 µM |
| Cn1c(=O)cc(Sc2ccc(Cl)cc2)c2cc(F)ccc21 | - | Huh-Luc-Neo | >100 µM |
| CCn1c(-c2ccccc2)c(C)c(=O)c2cc(NCC(C)C)ccc21 | MTT | HeLa S3 | >5 µg/mL |
| COc1ccc2nc3cc(Cl)ccc3c(NCCN3CCNCC3)c2c1 | MTS | MRC-5 cells | 0.28 µM |
| O=S(=O)(c1cccc2cnccc12)N1CCNCC1 | - | U-937 | 10.5 µg/mL |
| CC(C)(C)NC(=O)CN(C(=O)[C@H]1CC[C@@]2(C)C3CC=C4C[C@@H](O)CC[C@]4(C)C3CC[C@]12C)c1ccc(Cl)cc1 | crystal violet | Vero cells | 228 µM |
| COc1c(OCC(C)C)ccc2c1c(=O)c(C)c(-c1ccccc1)n2C | MTT | HeLa S3 | >10 µg/mL |
| CNCc1ccc(-c2ccc3ncnc(Nc4ccc(N5CCOCC5)cc4)c3c2)o1 | - | HUH 9B | >25 µM |
| COc1cc(OC[C@H]2CC[C@@H](COCc3ccccc3)O2)nc(N)n1 | - | PC-3 | 69 µM |
| CCc1cc(-c2ccc(C)o2)n(-c2ccc3c(c2)nc(-c2cc(F)ccc2O)n3Cc2ccc(OC)c(O)c2)n1 | MTT | 12D7-MDR | >21 µM |
| COc1ccc(O)c2c(=O)c3ccccc3n(C)c12 | - | OM-10.1 | 16 µg/mL |
| Cc1ccc2c(c1)C(O)(c1ccccc1)C(N)=N2 | - | Erythrocyte | >168 µM |
| CCN(CC)C(=O)OCC1CN(C(=O)c2ccc(OC)cc2OC)CCN1C(=O)c1ccc(OC)cc1OC | neutral red | MDM | >100 µM |
| N=C1Sc2ccccc2C2=NCCCN12 | LDH | Primary T lymphocytes | >300 µM |

The first 10 rows once more:

structure	read by	cell line	result
COc1ccc(C(O)C(Br)N=[N+]=[N-])cc1OC	-	HEK 293	<13.5 µM
C[C@H](CCC(=O)NCCCCN(CCCNC(=O)CC[C@@H](C)[C@H]1CC[C@H]2[C@@H]3[C@H](OS(=O)(=O)O)C[C@@H]4C[C@H](OS(=O)(=O)O)CC[C@]4(C)[C@H]3C[C@H](OS(=O)(=O)O)[C@]12C)C(=O)CC[C@@H](C)[C@H]1CC[C@H]2[C@@H]3[C@H](OS(=O)(=O)O)C[C@@H]4C[C@H](OS(=O)(=O)O)CC[C@]4(C)[C@H]3C[C@H](OS(=O)(=O)O)[C@]12C)[C@H]1CC[C@H]2[C@@H]3[C@H](OS(=O)(=O)O)C[C@@H]4C[C@H](OS(=O)(=O)O)CC[C@]4(C)[C@H]3C[C@H](OS(=O)(=O)O)[C@]12C	MTS	CaSki	>1000 µg/mL
COC(=O)N[C@@H]1[C@H](C)O[C@@H](OC2C/C=C(\C)[C@H]3C=C[C@H]4[C@H](OC5C[C@@H](OC6C[C@@H](O)[C@@H](OC7C[C@@H](O)[C@@H](OC)[C@H](C)O7)[C@H](C)O6)[C@@H](O)[C@H](C)O5)[C@H](C)C[C@@H](C)[C@@H]4[C@@]3(C)/C(O)=C3/C(=O)OC4(C[C@H](C)C(CO)=C[C@H]4/C=C\2C)C3=O)C[C@@]1(C)[N+](=O)[O-]	MTT	CEM-TART lymphoblastoid cells	0.3 µM
Cn1c2ccccc2c(=O)c2c(O)ccc(O)c21	-	OM-10.1	0.36 µg/mL
CCOC(=O)c1cccc(NC(=O)c2ccc3ncnc(Nc4ccc(N5CCOCC5)cc4)c3c2)c1	-	HUH 9B	>25 µM
CCCCCCOc1nc(N)nc2c1ncn2/C=C1/C[C@@H]1CO	ATP	Akata	>20 µM
CCCCCCCCCc1ccc(OCCOCCOCCOCCOCCOCCOCCOCCOCCO)cc1	MTT	P4-CCR5	70 µg/mL
CCc1ccc2c(c1)c(Sc1ccc(N)cc1)cc(=O)n2C	-	Huh-Luc-Neo	>100 µM
Nc1nc(N)nc(OC[C@H]2CC[C@@H](COc3nc(N)nc(N)n3)O2)n1	-	PC-3	>250 µM
C=C1C[C@@H](OC(=O)c2ccccc2)[C@H]2[C@](C)(C(=O)O)CCC[C@]2(C)C1CC/C(C)=C/CO	-	HELA229	1.8 µg/mL